Reference: patent US20070072177A1 (CRUCELL HOLLAND B V, published 2007)
Substitutions are numbered along the chain they refer to.

B1: SC04-008 (scFv)
scFv: AMAQVTLKESGPTLVKPTQTLTLTCTFSGFSLSTSGVGVGWIRQPPGKALEWLARIDWDDDKYYSTSLKTRLTISKDTSKNQVVLTMTNMDPVDTATYYCARMGFTGTYFDYWGQGTLVTVSSGTGGSGGTGSGTGGSTQAVLTQPSSVSVAPGETASVTCGGDNIGSKSVHWYQKKPGQAPVLVVFDDSDRPSGIPERFSGSTSGNTAALTISRVEAGDEADYYCQVWDSSNDHLYVFGPGTQLTVLSAAA
B2: SC04-010 (scFv)
scFv: AMAQVQLVQSGGDLVQPGRSLRLSCAASGFTFSSYGMHWVRQAPGKGLEWVADISYDGSNKYYADSVKGRFTISRDNSKNTLYLQMNSLRAEDTAVYYCAKDGLDLTGTIQPFGYWGQGTLVTVSSGTGGSGGTGSGTGGSTDIQMTQSPSSLSASVGDRVTITCRASQGIRNDLGWYQQKPGKAPKLLIYAASSLQSGVPSRFSGSGSGTDFTLTISSLQPEDFATYYCLQDYNYPRTFGQGTKVEIKRAAA
B3: SC04-018 (scFv)
scFv: AMAEVQLVESGPGLVRPSGTLSLTCAVSGGSISSSNWWSWVRQPPGKGLEWIGEIYHSGSTNYNPSLKSRVTISVDKSKNQFSLKLSSVTAADTAVYYCARVSVTTGAFNIWGQGTMVTVSSGTGGSGGTGSGTGGSTQPVLTQPLSASGTPGQRVTISCSGDTSNIGSNTVHWYQRLPGTAPKLLIHNNNQRPSGVPDRFSGAKSGTSASLAISGLQSEDEADYFCAAWDDNLNGYVFGTGTKVTVLGAAA
B4: SC04-021 (scFv)
scFv: AMAEVQLVESGGGVVQPGRSLRLSCAASGFTFSSYGMHWVRQAPGKGLEWVAVISYDGSSKYYADSVKGRFTISRDNSKNTLYLQMNSLRAEDTAVYYCAKGSVLGDAFDIWGQGTMVTVSSGTGGSGGTGSGTGGSTDIQMTQSPFSLSASVGDRVTITCRASQGIGSSLAWYQQKPGKAPKLLIYAASSLQSGVPSRFSGSGSGTDFTLTISSLQPEDFATYFCLQHHDYPLTFGGGTKLEIKRAAA
B5: SC04-026 (scFv)
scFv: AMAEVQLVESGAEVKKPGESLKISCKGSGYNFPYSWIAWVRQMPGKGLEWMGIIFPGDSDTRYSPPFQGQVTISADNSKSTAYLQWSSLKASDTAMYYCARTSNWNYLDRFDPWGQGTLVTVSSGTGGSGGTGSGTGGSTDVVMTQSPLSLPVTPGEPASISCRSSQSLLHSNGHDYLDWYVQKPGQSPQPLIYLGSDRASGVPDRFSGSGSGTHFTLNISRVEAEDVGVYYCMQSLQTPWTFGQGTKLEIKRAAA
B6: SC04-164 (scFv)
scFv: AMAEVQLVESGGGVVQPGRSLRLSCAASGFTFSSYGMHWVRQAPGKGLEWVAVISYDGSSKYYADSVKGRFTISRDNSKNTLYLQMNSLRAEDTAVYYCAKGSVLGDAFDIWGQGTMVTVSSGTGGSGGTGSGTGGSTDIQLTQSPSSVSASVGDRVTITCRASQGISSWLAWYQQKPGKAPKLLIYAASSLQSGVPSRFSGSGSGTDFTLTISSLQPEDFATYYCQQANSFPLTFGGGTKVDIKRAAA
B7: SC04-031 (scFv)
scFv: B6 scFv with S60N, L142M, S148F, D243E
B8: SC04-038 (scFv)
scFv: B6 scFv with E4Q, E9Q, S169G, G179E, S194R, L234P, G238Q, K241R, V242L, D243E
B9: SC04-040 (scFv)
scFv: AMAQVQLVQSGGGVVQPGRSLRLSCAASGFTFGSYGMHWVRQAPGKGLEWVATIFYDGSYKDYADSVKGRFTISRDNSKNTLYLQMNSLRAEDTAVYYCAKGSKVGDFDYWGQGTLVTVSSGTGGSGGTGSGTGGSTQPVLTQPPSVSVAPGQTARISCGGDNIGTNTVQWYQQKPGQAPVLVVYDDSDRPSGIPERFSGSNSGDTATLTISRVEAGDEADYYCQVWDDSSDLVVFGGGTKVTVLGAAA
B10: SC04-060 (scFv)
scFv: AMAQVQLVESGPGLVKASETLSLTCTVSDGSISSFYWSWIRQPPGKGLEWVGEIQDTGRTNYNPSLKSRVTISLDTSKNQFSLTLSSVTAADTAVYYCAREKEKYSDRSGYSYYYYYMDVWGKGTTVTVSSGTGGSGGTGSGTGGSTDIQMTQSPSSLSASVGDRVTITCRASQGISTYLNWYQQKPGKAPNLLIYGASNLQSGVPSRFSGSESGTDFTLTISSLQPEDFATYYCQQSFTTPRTFGQGTKLEIKRAAA
B11: SC04-073 (scFv)
scFv: AMAQVQLVQSGGGVAQPGRSLRLSCAASGFTFSSYGMHWVRQAPGKGLEWVADISYDGSNKYYADSVKGRFTISRDNSKNTLYLQMNSLRAEDTAVYYCAKDGLDLTGTIQPFGYWGQGTLVTVSSGTGGSGGTGSGTGGSTDIQLTQSPSFLSASVGDRVTITCRASHSISSWLAWYQQKPGKAPKLLIYKASSLESGVPSRFSGSGSGTDFTLTISSLQPEDFATYYCLQDYNYPRTFGQGTKLEIKRAAA
B12: SC04-097 (scFv)
scFv: AMAEVQLVQSGGHLVQPGGSLRLSCAASGFTFSSYAMSWVRQAPGKGLEWVSLIIGSGRSTYYADSVKGRFTISRDNSKNTLYLQMNSLRAEDTAVYYCAKTASNLGRGGMDVWGQGTTVTVSSGTGGSGGTGSGTGGSTDIQLTQSPSSLSASVGDRVTITCRASQGISSHLAWYQQKPGKAPKLLIYAASSLQSGVPSRFSGSGSGTEFTLTISSLQPEDFATYYCQQFNSYPITFGQGTRLEIKRAAA
B13: SC04-098 (scFv)
scFv: AMAEVQLVQSGGGAVQPGRSLRLSCAASGFTFSSYGMHWVRQAPGKGLEWVAVILYDGSDKFYADSVKGRFTISRDNSKNTLYLQMNSLRAEDTAVYYCAKVAVAGTHFDYWGQGTLVTVSSGTGGSGGTGSGTGGSTDIQMTQSPSSLSASVGDRVTITCRASQGIRNDLGWYQQKPGKAPKLLIYAASSLQSGVPSRFSGSGSGTDFTLTISSLQPEDFATYYCQQLNSYPPTFGGGTKVEIKRAAA
B14: SC04-103 (scFv)
scFv: AMAQVQLQESGGGVVQPGRSLRLSCAASGFTFSSYGMHWVRQAPGKGLEWVAVILYDGSDKYYADSVKGRFTISRDNSKNTLYLQMNSLRAEDTAVYYCAKVAVAGESFDSWGRGTLVTVSSGTGGSGGTGSGTGGSTDIQLTQSPSSVSASVGDRVTITCRASQGISSWLAWYQQKPGKAPRSLIYDASSLQSGVPSRFSGSGSGTDFTLTISSLQPEDFATYYCQQADSFPITFGQGTRLEIKRAAA
B15: SC04-104 (scFv)
scFv: AMAQVQLQESGGGVVQPGRSLRLSCAASGFTFSSYGMHWVRQAPGKGLEWVATISYDGNVKDYADSVKGRFTISRDNSKNTLYLQMNSLRTEDTAVYYCAKIVVVTALDAFDIWGQGTMVTVSSGTGGSGGTGSGTGGSTDIQLTQSPSTLSASVGDRVTITCRASQILGHWLPLSWYQQKPGKAPKLLISKASSLESGVPPRFSGSGSGSDFTLTISSLQPDDFATYYCLQYHEYPLTFGGGTKLEIKRAAA
B16: SC04-108 (scFv)
scFv: AMAEVQLVQSGGGLVQPGGSLRLSCAASGFTFSSYGMHWVRQAPGKGLEWVAVILYDGSDKFYADSVKGRFTISRDNSKDTLYLQMNSLRAEDTAVYYCAKFMIVADDAFDIWGQGTMVTVSSGTGGSGGTGSGTGGSTDIQLTQSPSSLSASVGDRVTITCRASQGISSHLVWYQQKPGKAPKSLIYAASSLQSGVPSRFSGSESATDFTLTISSLQPEDFATYYCQQYYSYPITFGQGTRLEIKRAAA
B17: SC04-120 (scFv)
scFv: AMAEVQLVQSGGGLVQPGRSLRLSCAASGFTFSTYGMHWVRQAPGKGLEWVATISYDGSIKDYADSEKGRFTISRDNSKNTLYLQMNSLRAEDTAVYYCAKGGKTGEFDYWGQGTLVTVSSGTGGSGGTGSGTGGSTDIQLTQSPSTLSASVGDRVTITCRASQGINSYLAWYQQEPGKAPKLLIYAASTLQSGVPSRFSGSGSGTEFTLTISSLQPEDFATYYCQQLNSYPFTFGPGTKVDIKRAAA
B18: scFv SO57 (scFv)
scFv: AMAQVQLVQSGAEVKKPGSSVKVSCKASGGTFNRYTVNWVRQAPGQGLEWMGGIIPIFGTANYAQRFQGRLTITADESTSTAYMELSSLRSDDTAVYFCARENLDNSGTYYYFSGWFDPWGQGTLVTVSSGTGGSGGTGSGTGGSTQSALTQPRSVSGSPGQSVTISCTGTSSDIGGYNFVSWYQQHPGKAPKLMIYDATKRPSGVPDRFSGSKSGNTASLTISGLQAEDEADYYCCSYAGDYTPGVVFGGGTKLTVLGAAA

Target: T1, glycoprotein of rabies virus strain CVS-11 (rabies virus strain CVS-11, UniProt O92284 20-524)
T1 sequence: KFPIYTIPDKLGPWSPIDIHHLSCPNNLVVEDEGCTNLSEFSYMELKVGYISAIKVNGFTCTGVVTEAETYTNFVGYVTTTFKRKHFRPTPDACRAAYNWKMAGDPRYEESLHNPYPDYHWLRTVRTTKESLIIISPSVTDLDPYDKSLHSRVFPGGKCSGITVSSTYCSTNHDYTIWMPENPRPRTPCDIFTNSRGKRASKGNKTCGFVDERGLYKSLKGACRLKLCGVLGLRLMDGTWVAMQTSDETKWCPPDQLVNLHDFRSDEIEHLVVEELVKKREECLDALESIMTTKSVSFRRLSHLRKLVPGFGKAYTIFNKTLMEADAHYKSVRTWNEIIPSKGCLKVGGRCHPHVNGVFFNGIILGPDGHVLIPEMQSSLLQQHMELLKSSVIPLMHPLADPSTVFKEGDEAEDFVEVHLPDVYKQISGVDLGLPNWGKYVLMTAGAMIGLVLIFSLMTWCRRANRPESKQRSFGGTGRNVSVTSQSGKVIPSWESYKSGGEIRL
Assay: cell-based or functional assay

Binder | 50% endpoint dilution
B1 | > 10900 dilution
B2 | 810 dilution
B3 | 15 dilution
B4 | 270 dilution
B5 | 45 dilution
B6 | 45 dilution
B7 | 90 dilution
B8 | 270 dilution
B9 | 45 dilution
B10 | 30 dilution
B11 | 405 dilution
B12 | 30 dilution
B13 | 1220 dilution
B14 | 45 dilution
B15 | 135 dilution
B16 | 135 dilution
B17 | 810 dilution

Target: 5% FBS preparation
Assay: phage ELISA on coated 5% FBS, anti-M13-HRP

Binder | OD 492 nm
B1 | 0.058 OD 492 nm
B2 | 0.043 OD 492 nm
B3 | 0.052 OD 492 nm
B4 | 0.052 OD 492 nm
B5 | 0.054 OD 492 nm
B6 | 0.057 OD 492 nm
B7 | 0.065 OD 492 nm
B8 | 0.061 OD 492 nm
B9 | 0.053 OD 492 nm
B10 | 0.056 OD 492 nm
B11 | 0.054 OD 492 nm
B12 | 0.056 OD 492 nm
B13 | 0.06 OD 492 nm
B14 | 0.059 OD 492 nm
B15 | 0.063 OD 492 nm
B16 | 0.052 OD 492 nm
B17 | 0.052 OD 492 nm
B18 | 0.055 OD 492 nm
